{"source": "PubChem BioAssay AID1259414 (Drosophila RNAi Screening Center, 2018)", "screen": "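Genome-wide screen for host control of endosymbiont load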 (primary screen)", "system": "Drosophila JW18 cells infected with Wolbachia", "reagents": "long dsRNA against Drosophila genes, 0.25 µg dsRNA per well of a 384-well plate", "timing": "5 days", "challenge": "cells persistently infected with Wolbachia before knock-down; no added drug", "measurement": "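Imaged fluorescence in situ signal for Wolbachia 23S rRNA per DAPI-counted host cell, given as a robust z-score within each plate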", "direction": "Wolbachia per cell robust z: higher = more Wolbachia per host cell than the plate typical", "active means": "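Active if absolute robust z reaches 1.5 in two or more of three replicates, leaving out multi- or no-target dsRNAs, genes unexpressed in JW18 and A1 wells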", "note": "In all, the deposit lists about 24,000 reagents; below is an unselected part of those that have a named target and a result. In the full data, about 1,210 (5%) were called active. 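Inactive calls also include excluded dsRNAs with several or no targets, genes unexpressed in JW18, and well A1, regardless of score.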 Entries without a mark were called inactive. Reagent sequences are not shown."}
{"Gene": "borr (GeneID 34245)", "DRSC id": "DRSC41287", "Wolbachia per cell robust z, rep 1": 1.28, "Wolbachia per cell robust z, rep 2": 0.91, "Wolbachia per cell robust z, rep 3": -0.302}
{"Gene": "CG12659 (GeneID 50403)", "DRSC id": "DRSC17862", "Wolbachia per cell robust z, rep 1": 0.912, "Wolbachia per cell robust z, rep 2": 0.0249, "Wolbachia per cell robust z, rep 3": 0.849}
{"Gene": "CG12659 (GeneID 50403)", "DRSC id": "DRSC27326", "Wolbachia per cell robust z, rep 1": 0.101, "Wolbachia per cell robust z, rep 2": -0.926, "Wolbachia per cell robust z, rep 3": -0.907}
{"Gene": "CysRS (GeneID 36784)", "DRSC id": "DRSC05948", "Wolbachia per cell robust z, rep 1": 0.552, "Wolbachia per cell robust z, rep 2": 0.442, "Wolbachia per cell robust z, rep 3": -0.451}
{"Gene": "CysRS (GeneID 36784)", "DRSC id": "DRSC26620", "Wolbachia per cell robust z, rep 1": 0.88, "Wolbachia per cell robust z, rep 2": 0.683, "Wolbachia per cell robust z, rep 3": 0.906}
{"Gene": "ODA-Dnal1 (GeneID 35962)", "DRSC id": "DRSC07270", "Wolbachia per cell robust z, rep 1": -0.473, "Wolbachia per cell robust z, rep 2": -0.819, "Wolbachia per cell robust z, rep 3": 0.958}
{"Gene": "ODA-Dnal1 (GeneID 35962)", "DRSC id": "DRSC28259", "Wolbachia per cell robust z, rep 1": 1.37, "Wolbachia per cell robust z, rep 2": 0.381, "Wolbachia per cell robust z, rep 3": -1.07}
{"Gene": "Hr38 (GeneID 35332)", "DRSC id": "DRSC23230", "Wolbachia per cell robust z, rep 1": 0.363, "Wolbachia per cell robust z, rep 2": 0.989, "Wolbachia per cell robust z, rep 3": 0.557}
{"Gene": "Hr38 (GeneID 35332)", "DRSC id": "DRSC28077", "Wolbachia per cell robust z, rep 1": 0.68, "Wolbachia per cell robust z, rep 2": 0.213, "Wolbachia per cell robust z, rep 3": 1.52}
{"Gene": "Ten-a (GeneID 32183)", "DRSC id": "DRSC18924", "Wolbachia per cell robust z, rep 1": -2.45, "Wolbachia per cell robust z, rep 2": 0.798, "Wolbachia per cell robust z, rep 3": -0.65}
{"Gene": "Ten-a (GeneID 32183)", "DRSC id": "DRSC19700", "Wolbachia per cell robust z, rep 1": -4.37, "Wolbachia per cell robust z, rep 2": 0.835, "Wolbachia per cell robust z, rep 3": -1.15}
{"Gene": "Ten-a (GeneID 32183)", "DRSC id": "DRSC19793", "Wolbachia per cell robust z, rep 1": -0.681, "Wolbachia per cell robust z, rep 2": -0.269, "Wolbachia per cell robust z, rep 3": -0.705}
{"Gene": "Ten-a (GeneID 32183)", "DRSC id": "DRSC19864", "Wolbachia per cell robust z, rep 1": -0.183, "Wolbachia per cell robust z, rep 2": -0.677, "Wolbachia per cell robust z, rep 3": -3.77}
{"Gene": "Ten-a (GeneID 32183)", "DRSC id": "DRSC19865", "Wolbachia per cell robust z, rep 1": "-0.307 (active)", "Wolbachia per cell robust z, rep 2": -4.54, "Wolbachia per cell robust z, rep 3": -1.54}
{"Gene": "Ten-a (GeneID 32183)", "DRSC id": "DRSC20290", "Wolbachia per cell robust z, rep 1": -4.85, "Wolbachia per cell robust z, rep 2": 0.246, "Wolbachia per cell robust z, rep 3": 0.503}
{"Gene": "Ten-a (GeneID 32183)", "DRSC id": "DRSC21461", "Wolbachia per cell robust z, rep 1": 0.62, "Wolbachia per cell robust z, rep 2": 0.0608, "Wolbachia per cell robust z, rep 3": -1.2}
{"Gene": "Ten-a (GeneID 32183)", "DRSC id": "DRSC23016", "Wolbachia per cell robust z, rep 1": 0.304, "Wolbachia per cell robust z, rep 2": 0.796, "Wolbachia per cell robust z, rep 3": -3.89}
{"Gene": "Ten-a (GeneID 32183)", "DRSC id": "DRSC29598", "Wolbachia per cell robust z, rep 1": -0.374, "Wolbachia per cell robust z, rep 2": -2.34, "Wolbachia per cell robust z, rep 3": -0.99}
{"Gene": "Acer (GeneID 34189)", "DRSC id": "DRSC01852", "Wolbachia per cell robust z, rep 1": 0.968, "Wolbachia per cell robust z, rep 2": -0.798, "Wolbachia per cell robust z, rep 3": 0.108}
{"Gene": "CG32448 (GeneID 318032)", "DRSC id": "DRSC22657", "Wolbachia per cell robust z, rep 1": 0.217, "Wolbachia per cell robust z, rep 2": 0.638, "Wolbachia per cell robust z, rep 3": -0.756}
{"Gene": "Pih1D1 (GeneID 34685)", "DRSC id": "DRSC02897", "Wolbachia per cell robust z, rep 1": "-3.41 (active)", "Wolbachia per cell robust z, rep 2": -0.125, "Wolbachia per cell robust z, rep 3": -4.53}
{"Gene": "Pih1D1 (GeneID 34685)", "DRSC id": "DRSC28212", "Wolbachia per cell robust z, rep 1": 0.592, "Wolbachia per cell robust z, rep 2": 1.42, "Wolbachia per cell robust z, rep 3": 0.998}
{"Gene": "asRNA:CR31845 (GeneID 12798199)", "DRSC id": "DRSC23074", "Wolbachia per cell robust z, rep 1": -1.81, "Wolbachia per cell robust z, rep 2": -0.694, "Wolbachia per cell robust z, rep 3": -0.433}
{"Gene": "CG33223 (GeneID 2768867)", "DRSC id": "DRSC17572", "Wolbachia per cell robust z, rep 1": -0.334, "Wolbachia per cell robust z, rep 2": -0.696, "Wolbachia per cell robust z, rep 3": -0.865}
{"Gene": "CG33223 (GeneID 2768867)", "DRSC id": "DRSC26875", "Wolbachia per cell robust z, rep 1": -0.245, "Wolbachia per cell robust z, rep 2": 0.722, "Wolbachia per cell robust z, rep 3": -0.48}

Individual results from above:
Pih1D1 (GeneID 34685) [DRSC28212], Wolbachia per cell robust z, rep 2: 1.42
CG33223 (GeneID 2768867) [DRSC17572], Wolbachia per cell robust z, rep 2 = -0.696
For “Wolbachia per cell robust z, rep 1”, CG12659 (GeneID 50403) [DRSC17862] shows 0.912
